Results reported in ChEMBL document CHEMBL1157539, “Thousands of chemical starting points for antimalarial lead identification” (Nature, 2010).
Some compounds may have been tested in ways that are not shown here.

System: Plasmodium falciparum
Assay: GSK_TCMDC: Inhibition of Plasmodium falciparum 3D7 in whole erythrocytes, using parasite LDH activity as an index of growth.
Format: functional, organism-based

SMILES | XC50 [nM]
CC(C)(C)c1cc2cc(N(C(=O)c3ccc(C(F)(F)F)cc3)C3CCN(Cc4ccccc4)CC3)ccc2[nH]1 | 1190
Cn1c(=O)n(C2CCN(CCCC(c3ccc(F)cc3)c3ccc(F)cc3)CC2)c2ccccc21 | 836
